Anti-infective test results gathered from many reports (values: NIAID ChemDB through PubChem).

Common to all: tests in culture; organism: HIV-1; cells: MT-2; endpoint: EC50

An empty or dashed field is not shown. Conditions beyond the fields shown may differ between rows. Two numbers with a dash give a range or band. ECn: concentration that inhibits the pathogen or its effect by n%.

| compound | strain | changes | read by | conditions | result |
|---|---|---|---|---|---|
| COc1ccc(N(C)C(=O)[C@H](Cc2ccccc2)Nc2nc(N)nc(N[C@@H](Cc3ccccc3)C(=O)N(C)c3ccc(OC)cc3)n2)cc1 | NL4-3 | - | luciferase | - | 3.8 µM |
| Cc1ncccc1C(=O)N[C@@]12CC[C@]3(C)C(CC[C@@H]4[C@@]5(C)CC[C@H](OC(=O)CC(C)(C)C(=O)O)C(C)(C)[C@@H]5CC[C@]43C)C1=C(C(C)C)C(=O)C2 | IIIB | - | RT activity | 30% human serum | <0.199 µM |
| CCc1ncc(N(C)C(=O)[C@H](Cc2cc(F)cc(F)c2)NC(=O)NS(=O)(=O)N[C@@H](Cc2cc(F)cc(F)c2)C(=O)N(C)c2cnc(CC)nc2)cn1 | NL4-3 | - | luciferase | - | 16.03 µM |
| Cc1ccc(S(=O)(=O)N2CCC3(CC2)OCCn2c3nc(C(=O)NCc3ccc(F)cc3S(=O)(=O)N3CCOCC3)c(O)c2=O)cc1 | NL4-3 | - | luciferase / reporter gene | - | 0.001–0.01 µM |
| CC(C)=CCOc1cc(Nc2ccccn2)ccc1C | IIIB | - | cytopathic effect / MTT | - | >35 µM |
| CC(C)C1=C2[C@H]3CC[C@@H]4[C@@]5(C)CC[C@H](OC(=O)CC(C)(C)C(=O)O)C(C)(C)[C@@H]5CC[C@@]4(C)[C@]3(C)CC[C@@]2(NC(=O)c2nccs2)CC1=O | IIIB | - | RT activity | 30% human serum | <0.199 µM |
| COc1ccc(N(C)C(=O)[C@H](Cc2ccccc2)NC(=O)NS(=O)(=O)N[C@@H](Cc2ccccc2)C(=O)N(C)c2ccc(OC)cc2)cc1 | NL4-3 | - | luciferase | - | 0.03 µM |
| CC(C)C1=C2C3CCC4[C@@]5(C)CC[C@H](OC(=O)CC(C)(C)C(=O)O)C(C)(C)C5CC[C@@]4(C)[C@]3(C)CC[C@@]2(NC(=O)NCc2ccsc2)CC1=O | IIIB | - | RT activity | 30% human serum | <0.199 µM |
| C=C(C)[C@@H]1CC[C@]2(CO)CC[C@]3(C)[C@H](CC[C@@H]4[C@@]5(C)CC=C(c6ccc(C(=O)O)c(C(F)(F)F)c6)C(C)(C)[C@@H]5CC[C@]43C)[C@@H]12 | NL4-3 | Gag P373S | luciferase | - | 1 µM |
| COc1cccc(C[C@H](C[C@H](O)[C@H](Cc2ccccc2)NC(=O)OC(C)(C)C)C(=O)N[C@H](C(=O)N[C@@H](Cc2ccccc2)C(=O)N2CCOCC2)C(C)C)c1 | MN | - | RT activity | - | <0.03 µM |
| CN(C(=O)[C@H](Cc1cc(F)cc(F)c1)NC(=O)NS(=O)(=O)N[C@@H](Cc1cc(F)cc(F)c1)C(=O)N(C)c1ccc(C2CC2)cc1)c1ccc(C2CC2)cc1 | NL4-3 | - | luciferase | - | 0.01 µM |
| Cc1ccc(F)cc1S(=O)(=O)N1CCC2(CC1)OCCn1c2nc(C(=O)NCc2ccc(F)cc2-n2cncn2)c(O)c1=O | NL4-3 | - | luciferase / reporter gene | - | 0.001–0.01 µM |
| CCCOCCCNC(=O)[C@@H](NC(=O)[C@H](Cc1ccc(OC)c(OC)c1OC)C[C@H](O)[C@H](Cc1ccccc1)NC(=O)OC(C)(C)C)C(C)C | MN | - | RT activity | - | <0.03 µM |
| N#Cc1ccc(Nc2nccs2)cc1OCc1cccs1 | IIIB | - | cytopathic effect / MTT | - | >4.1 µM |
| CC(C)C1=C2[C@H]3CC[C@@H]4[C@@]5(C)CC[C@H](OC(=O)CC(C)(C)C(=O)O)C(C)(C)[C@@H]5CC[C@@]4(C)[C@]3(C)CC[C@@]2(NS(C)(=O)=O)CC1=O | IIIB | - | RT activity | 30% human serum | <0.199 µM |
| CC(C)C1=C2[C@H]3CC[C@@H]4[C@@]5(C)CC[C@H](OC(=O)[C@H]6C[C@@H](C(=O)O)C6(C)C)C(C)(C)[C@@H]5CC[C@@]4(C)[C@]3(C)CC[C@@]2(CCNCC(C)(C)NC(=O)c2ccc(N3CCCCC3)cc2)CC1=O | 92HT599 | - | p24 / ELISA | - | <1 µM |
| [O-][n+]1onc2ncnc(N3CC[N+]4(CC3)CC[N+]3(CCN(c5ncnc6no[n+]([O-])c56)CC3)CC4)c21 | 6S | - | cytopathic effect / XTT | - | 1.4 µM |
| Cc1cn(-c2ccc(C(=O)NC(C)(C)CNC(=O)C[C@@]34CC[C@]5(C)[C@H](CC[C@@H]6[C@@]7(C)CC[C@H](OC(=O)[C@H]8C[C@@H](C(=O)O)C8(C)C)C(C)(C)[C@@H]7CC[C@]65C)C3=C(C(C)C)C(=O)C4)cc2)cn1 | 92HT599 | - | p24 / ELISA | - | <1 µM |
| Cc1nc2cc(N(C)C(=O)[C@H](Cc3cc(F)cc(F)c3)NC(=O)NS(=O)(=O)N[C@@H](Cc3cc(F)cc(F)c3)C(=O)N(C)c3ccc4sc(C)nc4c3)ccc2s1 | NL4-3 | - | luciferase | - | 0.19 µM |
| C=C(C)[C@@H]1CC[C@]2(C(=O)O)CC[C@]3(C)[C@H](CC[C@@H]4[C@@]5(C)CC=C(c6ccc(C(=O)O)c(Cl)c6)C(C)(C)[C@@H]5CC[C@]43C)[C@@H]12 | NL4-3 | Gag P373S | luciferase | - | 1 µM |
| Cc1nc(C(=O)N[C@@]23CC[C@]4(C)C(CCC5[C@@]6(C)CC[C@H](OC(=O)CC(C)(C)C(=O)O)C(C)(C)C6CC[C@]54C)C2=C(C(C)C)C(=O)C3)cs1 | IIIB | - | RT activity | 30% human serum | <0.199 µM |
| CC(C)=CCOc1cc(Nc2nccs2)ccc1C(C)C | IIIB | - | cytopathic effect / MTT | - | >31 µM |
| CN(C)C(=O)N1CCC2(CC1)OCCn1c2nc(C(=O)NCc2ccc(F)cc2)c(O)c1=O | NL4-3 | - | luciferase / reporter gene | - | 0.001–0.01 µM |
| C=C(C)[C@@H]1CC[C@]2(CO)CC[C@]3(C)[C@H](CC[C@@H]4[C@@]5(C)CC=C(c6ccc(C(=O)O)c(C(=O)O)c6)C(C)(C)[C@@H]5CC[C@]43C)[C@@H]12 | NL4-3 | Gag P373S | luciferase | - | 1 µM |
| Cc1noc(C)c1C(=O)NC(C)(C)CNCC[C@@]12CC[C@]3(C)[C@H](CC[C@@H]4[C@@]5(C)CC[C@H](OC(=O)[C@H]6C[C@@H](C(=O)O)C6(C)C)C(C)(C)[C@@H]5CC[C@]43C)C1=C(C(C)C)C(=O)C2 | 92HT599 | - | p24 / ELISA | - | <1 µM |
| CC1(C)CC(NC(=O)C(=O)Nc2ccc(Cl)cc2)CC(C)(C)N1 | V32 | - | p24 | - | 5.28 µM |
| CC(C)C1=C2[C@H]3CC[C@@H]4[C@@]5(C)CC[C@H](OC(=O)CC(C)(C)C(=O)O)C(C)(C)[C@@H]5CC[C@@]4(C)[C@]3(C)CC[C@@]2(NC(=O)c2ccccc2)CC1=O | IIIB | - | RT activity | 30% human serum | <0.199 µM |
| COCCNC(=O)[C@@H](NC(=O)[C@H](Cc1ccc(OC)c(OC)c1OC)C[C@H](O)[C@H](Cc1ccccc1)NC(=O)OC(C)(C)C)C(C)C | MN | - | RT activity | - | <0.03 µM |
| CC(C)C1=C2C3CCC4[C@@]5(C)CC[C@H](OC(=O)CC(C)(C)C(=O)O)C(C)(C)C5CC[C@@]4(C)[C@]3(C)CC[C@@]2(N(C)C(=O)C2CC3CCC(C2)O3)CC1=O | IIIB | - | RT activity | 30% human serum | <0.199 µM |
| CS(=O)(=O)N1CCC2(CC1)OCCn1c2nc(C(=O)NCc2ccc(F)cc2-n2cncn2)c(O)c1=O | NL4-3 | - | luciferase / reporter gene | - | 0.001–0.01 µM |
| CC(C)C1=C2C3CCC4[C@@]5(C)CC[C@H](OC(=O)CC(C)(C)C(=O)O)C(C)(C)C5CC[C@@]4(C)[C@]3(C)CC[C@@]2(NC(=O)NC(C)(C)C2CCCCC2)CC1=O | IIIB | - | RT activity | 30% human serum | >1 µM |
| C=C(C)[C@@H]1CC[C@]2(C(=O)O)CC[C@]3(C)[C@H](CC[C@@H]4[C@@]5(C)CC=C(c6cccc(S(=O)(=O)NC)c6)C(C)(C)[C@@H]5CC[C@]43C)[C@@H]12 | NL4-3 | Gag P373S | luciferase | - | 1 µM |
| CC(C)C1=C2[C@H]3CC[C@@H]4[C@@]5(C)CC[C@H](OC(=O)[C@H]6C[C@@H](C(=O)O)C6(C)C)C(C)(C)[C@@H]5CC[C@@]4(C)[C@]3(C)CC[C@@]2(CCNC(=O)c2ccc(N3CCOCC3)cc2)CC1=O | 92HT599 | - | p24 / ELISA | - | <1 µM |
| CNC(=O)c1c(O)c2ncc(Cc3ccc(F)cc3)c3c2n(c1=O)C[C@H](Cn1ccnc1)O3 | IIIB | - | ATP / luminescence | - | 0.0012 µM |
| CC(C)C1=C2[C@H]3CC[C@@H]4[C@@]5(C)CC[C@H](OC(=O)[C@H]6C[C@@H](C(=O)O)C6(C)C)C(C)(C)[C@@H]5CC[C@@]4(C)[C@]3(C)CC[C@@]2(CCNCC(F)(CO)NC(=O)c2ccc(Cl)cc2)CC1=O | 92HT599 | - | p24 / ELISA | - | <1 µM |
| COCCCNC(=O)[C@@H](NC(=O)[C@H](Cc1ccc(OC)c(OC)c1OC)C[C@H](O)[C@H](Cc1ccccc1)NC(=O)OC(C)(C)C)C(C)C | MN | - | RT activity | - | <0.03 µM |
| CC(C)C1=C2[C@H]3CC[C@@H]4[C@@]5(C)CC[C@H](OC(=O)[C@H]6C[C@@H](C(=O)O)C6(C)C)C(C)(C)[C@@H]5CC[C@@]4(C)[C@]3(C)CC[C@@]2([C@@H](O)CNC(=O)[C@@H](C)NC(=O)c2ccc(Cl)cc2)CC1=O | 92HT599 | - | p24 / ELISA | - | <1 µM |
| CCNC(=O)[C@@H]1Cn2c(=O)c(C(=O)NCCO)c(O)c3ncc(Cc4ccc(F)cc4)c(c32)O1 | IIIB | - | ATP / luminescence | - | 0.0097 µM |
| O=C(NCc1ccc(F)cc1)c1nc2n(c(=O)c1O)CCCOC21CCN(C(=O)OCc2ccccc2)CC1 | NL4-3 | - | luciferase / reporter gene | - | 0.01–0.1 µM |
| CC(C)C(=O)N[C@@]12CC[C@]3(C)C(CCC4[C@@]5(C)CC[C@H](OC(=O)CC(C)(C)C(=O)O)C(C)(C)C5CC[C@]43C)C1=C(C(C)C)C(=O)C2 | IIIB | - | RT activity | 30% human serum | <0.199 µM |
| O=C(NCCCn1cccn1)c1c(O)c2ncc(Cc3ccc(F)cc3)c3c2n(c1=O)CC(F)(F)CN3 | IIIB | - | ATP / luminescence | - | 0.003 µM |
| CC(C)C1=C2[C@H]3CC[C@@H]4[C@@]5(C)CC[C@H](OC(=O)[C@H]6C[C@@H](C(=O)O)C6(C)C)C(C)(C)[C@@H]5CC[C@@]4(C)[C@]3(C)CC[C@@]2(CC(=O)NC2(CNC(=O)c3ccc(Cl)cc3)COC2)CC1=O | 92HT599 | - | p24 / ELISA | - | <1 µM |
| O=C(NCCO)c1c(O)c2ncc(Cc3ccc(F)cc3)c3c2n(c1=O)CC(CO)(CO)O3 | IIIB | - | ATP / luminescence | - | 0.032 µM |
| Clc1ccc(Nc2nccs2)cc1OCC1CCCCC1 | IIIB | - | cytopathic effect / MTT | - | >15 µM |
| COc1ccccc1C[C@H](C[C@H](O)[C@H](Cc1ccccc1)NC(=O)OC(C)(C)C)C(=O)N[C@H](C(=O)NCCN(C)C)C(C)C | MN | - | RT activity | - | <3 µM |
| CNC(=O)c1c(O)c2ncc(Cc3ccc(F)cc3)c3c2n(c1=O)C[C@@H](CN1CCN(S(C)(=O)=O)CC1)O3 | IIIB | - | ATP / luminescence | - | 0.0003 µM |

Repeating the final 5 entries:

CC(C)C1=C2[C@H]3CC[C@@H]4[C@@]5(C)CC[C@H](OC(=O)[C@H]6C[C@@H](C(=O)O)C6(C)C)C(C)(C)[C@@H]5CC[C@@]4(C)[C@]3(C)CC[C@@]2(CC(=O)NC2(CNC(=O)c3ccc(Cl)cc3)COC2)CC1=O ; strain: 92HT599 ; read by: p24 / ELISA ; result: <1 µM
O=C(NCCO)c1c(O)c2ncc(Cc3ccc(F)cc3)c3c2n(c1=O)CC(CO)(CO)O3 ; strain: IIIB ; read by: ATP / luminescence ; result: 0.032 µM
Clc1ccc(Nc2nccs2)cc1OCC1CCCCC1 ; strain: IIIB ; read by: cytopathic effect / MTT ; result: >15 µM
COc1ccccc1C[C@H](C[C@H](O)[C@H](Cc1ccccc1)NC(=O)OC(C)(C)C)C(=O)N[C@H](C(=O)NCCN(C)C)C(C)C ; strain: MN ; read by: RT activity ; result: <3 µM
CNC(=O)c1c(O)c2ncc(Cc3ccc(F)cc3)c3c2n(c1=O)C[C@@H](CN1CCN(S(C)(=O)=O)CC1)O3 ; strain: IIIB ; read by: ATP / luminescence ; result: 0.0003 µM